Like-named read-outs stand apart in the source and are kept apart here.
How the values were obtained:
[1] = tested on: MIA-PaCa-2-GFP tumors; assay: Advanced metastatic pancreatic tumor model, orthotopic MIA-PaCa-2-GFP, whole-body imaging and survival; type: in vivo, nude mice
[2] = mice, i.v.; cited from earlier work
[3] = tested on: Panc-1 cell line; assay: Protein synthesis inhibition assay (cytotoxicity), Panc-1; type: cell-based, human
[4] = cynomolgus monkeys, i.v. every alternate day for three injections; cited from earlier work
[5] = tested on: GFP transfected human pancreatic tumor cells (Hs766T); assay: Repetitive therapy of orthotopic human pancreatic cancer (Hs766T-GFP); type: in vivo, nude mice
[6] = tested on: MIA-PaCa-2-GFP tumors; type: in vivo, nude mice
[7] = mice receiving optimal doses; data not shown
[8] = tested on: pancreatic cancer cell lines; assay: Protein synthesis inhibition assay, panel of pancreatic cancer cell lines; type: cell-based, human; conditions: data not shown
[9] = tested on: HS766T cells; assay: Protein synthesis inhibition assay (cytotoxicity), HS766T; type: cell-based, human; conditions: single agent
[10] = tested on: cancer cells expressing IL-4R cultured from clinical tumor sample; assay: Cytotoxicity to tumor cells cultured from clinical PDA sample; type: cell-based, human; conditions: cancer cells expressing IL-4R cultured from clinical sample
[11] = tested on: PK-1 cell line; assay: Protein synthesis inhibition assay (cytotoxicity), PK-1; type: cell-based, human
[12] = tested on: HPAF-II cells; assay: Protein synthesis inhibition assay (cytotoxicity), HPAF-II; type: cell-based, human
[13] = phase 1 clinical trial, i.v. administration at 0.027 mg/m2; cited from earlier work
[14] = tested on: ASPC-1 cell line; assay: Protein synthesis inhibition assay (cytotoxicity), ASPC-1; type: cell-based, human
[15] = tested on: MIA-PaCa-2 cells; type: cell-based, human
[16] = tested on: clinical pancreatic cancer sample xenograft; assay: Advanced orthotopic pancreatic cancer model from a clinical sample, survival; type: in vivo; conditions: clinical sample in SCID mice, treatment from day 31; gemcitabine 150 mg/kg i.p. twice a week; PRX321 100 ug/kg i.p. twice a day days 31-35; non-treatment 62 days
[17] = tested on: Capan-1 cells; type: cell-based, human; conditions: single agent

IL4(38-37)-PE38KDEL [PRX321]
Time after treatment for which rate of tumor growth (primary and metastasis lesions) was reduced [1]: 9 days
Reduction in tumor size on day 28 compared with the no treatment group ([1]; day 28): 71.2%
Median survival time ([1]; non-treatment group 28 days): 43 days
Tumor growth compared with non-treatment group (whole-body imaging) ([1]; treatment from day 15, gemcitabine 150 mg/kg i.p. twice a week, PRX321 100 ug/kg i.p. twice a day for 5 days): reduction in the rate of tumor growth
Well tolerated dose [2]: up to 475 Ag/kg
IC50 (50% protein synthesis inhibition) [3]: < 10 ng/mL
Reasonably tolerated dose [4]: ≤ 200 Ag/kg
Tumor volume compared to control ([5]; 100 ug/kg/day i.p. for one week): significantly decreased the tumor volume
Visible side effects ([5]; repetitive therapy): did not observe any visible side effects
Established pancreatic tumor growth ([5]; repetitive therapy: 100 ug/kg/day i.p. every alternate week for 3 weeks): dramatic regression
Organ toxicity in heart, liver, lung, kidney, and spleen by histologic examination ([6]; PRX321-injected mice): did not observe any organ toxicity
Time after treatment for which rate of tumor growth (primary and metastasis lesions) was reduced ([6]; early model): 15 days
Day by which tumor recurred ([6]; early model, mice without lesions on day 14): ≤ 34 days
Tumor growth compared with non-treatment group (whole-body imaging) ([6]; early model, treatment from day 5, gemcitabine 150 mg/kg i.p. twice a week, PRX321 100 ug/kg i.p. twice a day for 5 days): reduction in the rate of tumor growth
Median survival time ([6]; early model, non-treatment group 27 days): 64 days
Visible signs of toxicity (weight loss, inactivity) [7]: no visible signs of toxicity
Cytotoxic activity after incubation with an excess of IL-4 [8]: neutralized
IC50 (50% protein synthesis inhibition) [9]: 13 ng/mL
IC50 [10]: 0.32 ng/mL
IC50 (50% protein synthesis inhibition) [11]: ≥ 1,000 ng/mL
IC50 (50% protein synthesis inhibition) [12]: ≥ 1,000 ng/mL
Adverse effects reported [13]: reversible elevation of liver enzymes and injection site inflammatory reactions
IC50 (50% protein synthesis inhibition) [14]: < 10 ng/mL
IC50 of PRX321 with added gemcitabine ([15]; adding 0.03 nmol/L gemcitabine): 0.012 ng/mL
IC50 of PRX321 with added gemcitabine ([15]; adding 0.3 nmol/L gemcitabine): 0.001 ng/mL
IC50 (50% protein synthesis inhibition) ([15]; single agent): 0.08 ng/mL
IC75 (75% protein synthesis inhibition) ([15]; single agent): 0.32 ng/mL
IC50 (50% protein synthesis inhibition) ([15]; single agent, listed as IL-4 cytotoxin): 0.065 ng/mL
Median survival time [16]: 102 days
IC75 (75% protein synthesis inhibition) [17]: 22 ng/mL
